A mixed list of measured activities; the numbers were collected in NIAID ChemDB.

Common to all: whole-cell or culture tests; agent: Mycobacterium tuberculosis

A number after MIC or MFC names an inhibition level or a share of isolates. ECn is the concentration giving n% inhibition of infection, replication or growth. Inhibition is in % at the dose shown (toxicity tests: loss of growth or viability). MIC bound: limit read from a one-dose screen. Zones are inhibition diameters on agar. Neighbouring rows are from separate reports. An empty or dashed field is not shown.

SMILES	strain or isolate	tested at	cell line	read-out	method	value
NC1[C@H]2CN(c3nc4c(cc3F)c(=O)c(C(=O)O)cn4-c3ccc(F)cc3F)C[C@@H]12	33 strains	-	-	MIC90	-	32 µg/mL
CCCCN(CCCC)CCCOC(=O)c1ccc2oc3ccc(C(=O)OCCCN(CCCC)CCCC)cc3c2c1	H37Rv	-	-	MIC bound	BACTEC	≤12.5 µg/mL
CCCCNCc1ccccc1	H37Rv	-	-	MIC	-	60 µg/mL
Cc1cccc(CSc2cc(C(N)=S)ccn2)c1	My 331/88	-	-	MIC	-	31 µM
COc1ccc(C2CC(c3ccccc3)=NN2C(=S)Nc2ccccc2)cc1	H37Ra	-	-	MIC	MTT	>517 µM
N#C/C(=C\c1ccc(C(F)(F)F)cc1)n1nc2ccccc2n1	-	-	-	EC50	-	>12.5 µg/mL
COc1ccccc1N1CCN(Cc2cc(C)n(NC(=O)c3cnccn3)c2-c2ccccc2)CC1	27294	-	-	MIC	-	>16 µg/mL
Cc1nn(-c2ccccc2)c2c1C(c1cn(-c3ccccc3)nc1-c1ccc(Cl)cc1)C1=C(NC(C)(c3cc(O)ccc3Cl)NC1=O)O2	MTCC 300	1 mg/mL	-	zone	agar diffusion / agar	1.9 mm
O=C(Nc1cccnc1)c1ccc(CSc2ccc(Cl)cc2)o1	H37Rv	-	-	MIC bound	BACTEC	>12.5 µg/mL
N#C/C(=C\c1ccccc1)n1nnc2ccccc21	-	12.5 µg/mL	-	inhibition	-	98%
CCCCCCCCCCCCCC[C@H](O)C[C@H](O)C[C@H](O)C[C@H]1CC=CC(=O)O1	H37Rv	128 µg/mL	VERO	inhibition	fluorescence	82.9%
Cc1ccc(CSc2cc(C(N)=S)ccn2)cc1	My 331/88	-	-	MIC	-	62 µM
O=c1[nH][nH]c(=O)c2c1nc(SCc1ccc(Br)cc1)n2Cc1ccccc1	H37Rv	-	-	MIC bound	BACTEC	>12.5 µg/mL
N#C/C(=C\c1ccco1)n1nnc2ccccc21	H37Rv	-	-	EC50	-	>12.5 µg/mL
CCCCCCCCCCSc1nc(N)nc2c1ncn2CC(=O)N[C@@H](Cc1ccccc1)C(=O)OC	H37Rv	6.25 µg/mL	-	inhibition	BACTEC	0%
NC(=O)/C(=C\c1ccc(C(F)(F)F)cc1)n1nnc2ccccc21	H37Rv	12.5 µg/mL	-	inhibition	-	0%
CC(CO)CC[C@H](O)[C@](C)(O)[C@H]1CC[C@@]2(O)C3=CC(=O)[C@@H]4C[C@@H](O)[C@@H](O)C[C@]4(C)[C@H]3CC[C@]12C	H37Rv	-	-	MIC bound	BACTEC	>12.5 µg/mL
COc1ccc(-c2nn(-c3ccccc3)cc2C2C3=C(NC(C)(c4cc(O)c(I)cc4Cl)NC3=O)Oc3c2c(C)nn3-c2ccccc2)cc1	MTCC 300	0.5 mg/mL	-	zone	agar diffusion / agar	2.5 mm
N#C/C(=C/c1ccc(C(=O)O)cc1)n1nc2ccccc2n1	-	12.5 µg/mL	-	inhibition	-	6%
Nc1nc(Oc2ccccc2)c2[nH]cnc2n1	H37Rv	6.25 µg/mL	-	inhibition	BACTEC	0%
NCCC[C@H](N)CC(=O)N[C@H]1CNC(=O)[C@H]([C@H]2C[C@H](O)NC(N)=N2)NC(=O)/C(=C/NC(N)=O)NC(=O)[C@H](CO)NC(=O)[C@H](CO)NC1=O	Isolate VIM-R/3	-	-	MIC	-	20 µg/mL
Nc1ccc(C(=O)O)c(O)c1	Clinical isolate 10	-	-	MIC	-	0.5 µg/mL
CCCCCCCCCCCCCCC[C@H](O)C[C@H](O)CCC[C@H]1CC=CC(=O)O1	H37Rv	-	-	MIC	-	38.04 µg/mL
CO[C@H]1/C=C/O[C@@]2(C)Oc3c(C)c(O)c4c(O)c(c(/C=N/N5CCN(C)CC5)c(O)c4c3C2=O)NC(=O)/C(C)=C\C=C\[C@H](C)[C@H](O)[C@@H](C)[C@@H](O)[C@@H](C)[C@H](OC(C)=O)[C@@H]1C	MTCC 300	-	-	MIC	agar diffusion / agar	280 µg/mL
NC(=S)c1ccnc(SCc2ccccc2)c1	My 331/88	-	-	MIC	-	16 µM
Cc1ccc(-c2c(N)[n+]([O-])c3ccccc3[n+]2[O-])cc1	H37Rv	12.5 µg/mL	-	inhibition	BACTEC	84%
Cc1c(F)c(N2CCNC(C)C2)cc2c1c(=O)c(C(=O)O)cn2C1CC1	-	-	-	MIC90	-	0.78 µg/mL
Cc1ccc(/C=C(\C#N)n2nnc3ccccc32)cc1	-	-	-	EC50	-	<12.5 µg/mL
O=C(O)/C(=C\c1ccc(Cl)cc1)n1nnc2ccccc21	H37Rv	-	-	EC50	-	>12.5 µg/mL
CCCCNCc1cccc(I)c1	H37Rv	-	-	MIC	-	250 µg/mL
N#C/C(=C\c1ccccc1)n1nc2ccccc2n1	-	12.5 µg/mL	-	inhibition	-	76%
COc1ccccc1C1CC(c2ccccc2)=NN1C(=O)c1ccc(O)cc1	H37Ra	-	-	MBC	visual reading	537 µM
O=[N+]([O-])c1ccccc1Sc1nnc(N2CCN(c3nc(N4CCN(c5ccccc5)CC4)c4ccccc4n3)CC2)o1	H37Rv	12.5 µg/mL	-	inhibition	agar / visual reading	92%
O=C1C(=O)N(c2ccccc2Cl)C(=O)N1Cc1ccccc1	H37Rv	12.5 µg/mL	-	inhibition	BACTEC	2%
NC(=O)c1cnccn1	Isolate 97-720	-	-	MIC	-	900 µg/mL
CCOC(=O)NC(=O)CNc1ncc([N+](=O)[O-])s1	H37Rv	-	-	MIC bound	BACTEC	>12.5 µg/mL
CC(=O)c1ccccc1NNC(=O)N1CCN(c2nc(N3CCN(c4ccccc4)CC3)c3ccccc3n2)CC1	H37Rv	-	-	MIC	BACTEC / fluorescence	>6.25 µg/mL
Nc1nc(OCc2ccccc2)c2[nH]cnc2n1	H37Rv	6.25 µg/mL	-	inhibition	BACTEC	0%
COc1ccc(CSc2cc(C(N)=S)ccn2)cc1	My 331/88	-	-	MIC	-	31 µM
CCCCCCCCCCCCCCC[C@H](O)CCCCCC[C@H]1CC=CC(=O)O1	H37Rv	-	-	MIC	-	>128 µg/mL
O=c1c2ccccc2n2n1Cc1ccccc1C2	H37Rv	-	-	MIC bound	resazurin	>6.25 µg/mL
Cc1c(CN2CCN(C(c3ccccc3)c3ccccc3)CC2)cc(-c2ccc(Cl)cc2)n1-c1ccc(F)cc1F	27294	-	-	MIC	-	>16 µg/mL
O=C(O)c1cnccn1	H37Rv	-	-	MIC bound	BACTEC	>12.5 µg/mL
CCCCCCCCCCSc1nc(N)nc2c1ncn2CC(=O)N[C@@H](C)C(=O)OC	H37Rv	6.25 µg/mL	-	inhibition	BACTEC	0%
N#C/C(=C\c1ccc(N)cc1)n1nnc2ccccc21	-	-	-	EC50	-	>12.5 µg/mL
COc1ccccc1N1CCN(Cc2cc(-c3ccc(Cl)cc3)[nH]c2-c2c(C)ccc3ccccc23)CC1	27294	-	-	MIC	-	>16 µg/mL
CCCCNCc1ccccc1C	H37Rv	-	-	MIC	-	250 µg/mL
Cc1cccnc1NN	H37Rv	-	-	MIC bound	BACTEC	>12.5 µg/mL
C[C@H]1CCC2=C(CCCC2(C)C)[C@]1(C)CCC1=CC(=O)OC1O	H37Rv	12.5 µg/mL	-	inhibition	-	0%
NNC(=O)c1ccncc1	Clinical isolate 2	-	-	MIC	-	>100 µg/mL
Cc1ccc(/C=C(\C(N)=O)n2nnc3ccccc32)cc1	H37Rv	-	-	EC50	-	>12.5 µg/mL
N#Cc1ccnc(SCc2ccccc2F)c1	My 331/88	-	-	MIC	-	125 µM
Cc1ccc(/C=C(\C(N)=O)n2nc3ccccc3n2)cc1	H37Rv	12.5 µg/mL	-	inhibition	-	0%
CCCCCCCCNCc1ccccc1	H37Rv	-	-	MIC	-	250 µg/mL
CO/N=C1\C(n2[nH]c(=O)n(-c3ccccc3)c2=O)C2C=CC1n1c(=O)n(-c3ccccc3)c(=O)n12	H37Rv	-	-	MIC bound	resazurin	>6.25 µg/mL
N#C/C(=C\c1ccc(-c2ccccc2)cc1)n1nnc2ccccc21	H37Rv	-	-	EC50	-	>12.5 µg/mL
COc1ccc(C2CC(c3ccccc3)=NN2C(=O)c2ccc(O)cc2)cc1	H37Ra	-	-	MBC	visual reading	>535 µM
N#Cc1ccc(Sc2nnc(N3CCN(c4nc(N5CCN(c6ccccc6)CC5)c5ccccc5n4)CC3)o2)cc1	H37Rv	6.25 µg/mL	-	inhibition	BACTEC / fluorescence	0%
COc1ccc(N(C)CCCC(C#N)(c2ccc(OC)c(OC)c2)C(C)C)cc1OC	H37Rv	-	-	MIC99	resazurin	>1000 µM
NCCCC(N)CC(=O)NCC1NC(=O)C(CO)NC(=O)C(NC(=O)CC(N)CCCN)CNC(=O)C(C2CCN=C(N)N2)NC(=O)/C(=C/NC(N)=O)NC1=O	H37Rv	-	-	MIC	-	5 µg/mL
O=C(c1ccc(O)cc1)N1N=C(c2ccccc2)CC1c1ccc(Cl)cc1	H37Ra	-	-	MBC	visual reading	266 µM
Cc1c(CN2CCN(Cc3ccc4c(c3)OCO4)CC2)cc(-c2ccccc2)n1NC(=O)c1cnccn1	27294	-	-	MIC	-	>16 µg/mL
N#Cc1ccc(NNC(=O)N2CCN(c3nc(N4CCN(c5ccccc5)CC4)c4ccccc4n3)CC2)cc1	H37Rv	-	-	MIC	agar / visual reading	12.5 µg/mL
O=C(CCCn1cnc([N+](=O)[O-])n1)NCCn1ccnc1[N+](=O)[O-]	H37Rv	-	-	MIC bound	resazurin	>6.25 µg/mL
COc1ccccc1C1CC(c2ccccc2)=NN1C(=S)Nc1ccccc1	H37Ra	-	-	MIC	MTT	>517 µM
COC(=O)Nc1c2c(nc3ccccc13)-c1ccccc1C(C)(C)C2OC	H37Rv	-	-	MIC bound	BACTEC	>12.5 µg/mL
Cc1ccc(Oc2nc(N)nc3nc[nH]c23)cc1	H37Rv	6.25 µg/mL	-	inhibition	BACTEC	0%
COc1ccc(C2CC(c3c(C)nn(-c4ccccc4)c3-c3ccc(C)cc3O)=NN2c2ccccc2)cc1	H37Rv	6.25 µg/mL	-	inhibition	resazurin	10%
CCCCCCCCCCCCCCC[C@@H]1CC=CC(=O)O1	H37Rv	128 µg/mL	-	inhibition	fluorescence	66.3%
CO[C@H]1/C=C/O[C@@]2(C)Oc3c(C)c(O)c4c(O)c(c(/C=N/N5CCN(C)CC5)c(O)c4c3C2=O)NC(=O)/C(C)=C\C=C\[C@H](C)[C@H](O)[C@@H](C)[C@@H](O)[C@@H](C)[C@H](OC(C)=O)[C@@H]1C	Clinical isolate 15	-	-	MIC	-	0.5 µg/mL
NP1(N)=NP(N)(N)=NP(N)(N)=N1	H37Rv	-	-	MIC	BACTEC	≥128 µg/mL
O=C(O)c1ccncc1	CF74	-	-	MIC	resazurin	>25 µg/mL
NNC(=O)c1ccncc1	XDR-164	-	-	MIC	resazurin	4 µg/mL
Cc1ccc(NC(=O)C(=O)C2C(=O)C3=C(CC2(C)C)NC2C=CC=CC2S3)c(C)c1	H37Rv	-	-	MIC bound	BACTEC	>12.5 µg/mL
NC(=S)c1ccnc(SCc2ccc(Br)cc2)c1	My 331/88	-	-	MIC	-	31 µM
CCCCCCCCCCOc1nc(N)nc2c1ncn2CC(=O)N[C@@H](Cc1ccccc1)C(=O)OCC	H37Rv	6.25 µg/mL	-	inhibition	BACTEC	0%
COC(=O)C1CC(OC(C)=O)C2OC(C)(C)OC2C1OC(C)=O	H37Rv	-	-	MIC bound	BACTEC	>12.5 µg/mL
O=C(O)C(=O)O.OC(CNCCc1ccccc1)CN1c2ccccc2Sc2ccccc21	STB-960	-	-	MIC	resazurin	1 µg/mL
Cc1cc(NC(=O)NC(=O)c2ccccc2NC(=O)C(C)N)ccc1Oc1ncc(Br)cn1.Cl	H37Rv	12.5 µg/mL	-	inhibition	BACTEC	15%
CCCCCCCNc1cncc(C(=O)NCc2ccccc2)n1	H37Rv	-	-	MIC	resazurin	3.13 µg/mL
Nc1c(-c2c(Cl)cccc2Cl)[n+]([O-])c2ccccc2[n+]1[O-]	H37Rv	12.5 µg/mL	-	inhibition	BACTEC	99%
CCCCCCCCCCCCCCC[C@H](O)CC[C@@H](O)CCC[C@H]1CC=CC(=O)O1	H37Rv	128 µg/mL	VERO	inhibition	fluorescence	98.3%
COc1c(OC(C)=O)cc2c(OC(C)=O)c1CC(C)CC(OC)C(O)C(C)/C=C(\C)C(OC(N)=O)C(OC)/C=C\C=C(/C)C(=O)N2	H37Rv	12.5 µg/mL	-	inhibition	BACTEC	20%
S=C(Nc1ccccc1)N1N=C(c2ccccc2)CC1c1ccc(Cl)cc1	H37Ra	-	-	MIC	MTT	511 µM

Again, the opening 9 rows:

SMILES	strain or isolate	tested at	cell line	read-out	method	value
NC1[C@H]2CN(c3nc4c(cc3F)c(=O)c(C(=O)O)cn4-c3ccc(F)cc3F)C[C@@H]12	33 strains	-	-	MIC90	-	32 µg/mL
CCCCN(CCCC)CCCOC(=O)c1ccc2oc3ccc(C(=O)OCCCN(CCCC)CCCC)cc3c2c1	H37Rv	-	-	MIC bound	BACTEC	≤12.5 µg/mL
CCCCNCc1ccccc1	H37Rv	-	-	MIC	-	60 µg/mL
Cc1cccc(CSc2cc(C(N)=S)ccn2)c1	My 331/88	-	-	MIC	-	31 µM
COc1ccc(C2CC(c3ccccc3)=NN2C(=S)Nc2ccccc2)cc1	H37Ra	-	-	MIC	MTT	>517 µM
N#C/C(=C\c1ccc(C(F)(F)F)cc1)n1nc2ccccc2n1	-	-	-	EC50	-	>12.5 µg/mL
COc1ccccc1N1CCN(Cc2cc(C)n(NC(=O)c3cnccn3)c2-c2ccccc2)CC1	27294	-	-	MIC	-	>16 µg/mL
Cc1nn(-c2ccccc2)c2c1C(c1cn(-c3ccccc3)nc1-c1ccc(Cl)cc1)C1=C(NC(C)(c3cc(O)ccc3Cl)NC1=O)O2	MTCC 300	1 mg/mL	-	zone	agar diffusion / agar	1.9 mm
O=C(Nc1cccnc1)c1ccc(CSc2ccc(Cl)cc2)o1	H37Rv	-	-	MIC bound	BACTEC	>12.5 µg/mL